Measurements published in US20190298669A1 (priority 2018, published 2019).

Key:
FPV = assay: In vitro activity in cell culture, FPV; type: cell-based, influenza A virus
panH1N1 (RB1) = assay: In vitro activity in cell culture, panH1N1; type: cell-based, influenza A virus
[1] = test system: IAV A/PR8/34 (H1N1) RNP complexes; assay: Immunofluorescence of nuclear export of viral RNP complexes in A549 cells; type: cell-based, influenza A virus; conditions: 20 μM, 6 hours post infection
[2] = test system: A/Mallard/Bavaria/01/2006 (MB 1, H5N1); assay: In vitro study in infected MDCK II cells; type: cell-based, influenza A virus; conditions: MOI 0.001, 24 h
[3] = test system: H1N1pdm09 A/Regensburg/06/2009
[4] = test system: H3N2 A/Victoria/03/1975, H5N1 A/mallard/Bavaria/1/2006, H7N7 A/FPV/Bratislava/79, H7N9 A/Anhui/1/2013; conditions: 10 M CI-1040, A549 cells

## O=C(NOCC1CC1)c1ccc(F)c(F)c1Nc1ccc(I)cc1Cl
FPV
  potency in cell culture: also potent
panH1N1 (RB1)
  potency in cell culture: also potent
[1]
  nuclear export of viral RNPs: blocks the export step
[2]
  potency in cell culture: highly potent
[3]
  EC50: 26 nM
[4]
  antiviral activity against prototype strains: consistently strong antiviral activity
